This note sets out measurements from PMC8876323, “Heat Shock Transcription Factor CgHSF1 Is Required for Melanin Biosynthesis, Appressorium Formation, and Pathogenicity in Colletotrichum gloeosporioides”.

The exact form of at least one protein or probe is not confirmed. At least one verdict was read from the data and is not stated in words by the source. Protein sequences can lack the tags named with them.

This data set relates to T1, CgHSF1 (Colletotrichum gloeosporioides).
T1 sequence: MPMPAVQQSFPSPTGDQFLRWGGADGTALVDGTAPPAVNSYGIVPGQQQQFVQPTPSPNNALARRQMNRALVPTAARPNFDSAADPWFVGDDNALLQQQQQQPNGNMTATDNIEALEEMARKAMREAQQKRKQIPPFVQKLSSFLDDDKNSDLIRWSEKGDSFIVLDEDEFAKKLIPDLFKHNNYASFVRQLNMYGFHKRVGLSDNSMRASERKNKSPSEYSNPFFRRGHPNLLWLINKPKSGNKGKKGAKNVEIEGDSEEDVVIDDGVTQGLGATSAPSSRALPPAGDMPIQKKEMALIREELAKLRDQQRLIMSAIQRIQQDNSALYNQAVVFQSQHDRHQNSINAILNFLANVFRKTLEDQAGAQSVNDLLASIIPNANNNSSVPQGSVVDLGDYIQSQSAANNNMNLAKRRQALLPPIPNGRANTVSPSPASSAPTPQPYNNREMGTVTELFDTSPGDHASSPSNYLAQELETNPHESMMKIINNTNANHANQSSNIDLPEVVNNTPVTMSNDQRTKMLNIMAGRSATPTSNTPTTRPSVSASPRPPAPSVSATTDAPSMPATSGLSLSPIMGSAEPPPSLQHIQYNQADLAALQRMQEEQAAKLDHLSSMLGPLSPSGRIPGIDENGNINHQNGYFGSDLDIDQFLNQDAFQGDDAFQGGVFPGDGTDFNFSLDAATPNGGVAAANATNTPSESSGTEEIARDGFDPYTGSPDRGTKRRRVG
The experiment in a line: EMSA. To be noted: recombinant protein.

Regarding “GACGACAAATGCAAGAAGTTCGGACCGTTGCCTG (double strand) [SCD-probe1]”, the binding result was “binds”.
Under “TTGTCAGCTCGTCTGGAATTCGGCCGGCCGTGGA (double strand) [SCD-probe2]” stands “binds”.
